Compound potency records, mixed from different reports. Data source: NIAID ChemDB in PubChem.

Shared fields: host cell toxicity; cells: PBMC; read-out: CC50

An empty or dashed field is not shown. CCn is the concentration with n% toxicity to the cells. Rows are shuffled and stem from different studies.

Cc1ccc(N2C(=O)CCC2(CN)c2ccccc2OCc2ccccc2)cc1 ; method: absorbance ; value: 45.2 µM
CN1CCN(CCSc2nc(-c3ccc4ccccc4c3)c3ccccc3n2)CC1 ; value: 100 µM
N#CC1(c2ccc(OCc3ccccc3)cc2)CCC(=O)N1Cc1ccccc1 ; method: absorbance ; value: 5.9 µM
Cc1cc(NC(=O)NCCc2ccc3c(n2)NCCC3)on1 ; value: 50 µM
Nc1nccc2c1ncn2[C@@H]1O[C@H](CO)[C@@H](O)[C@H]1O ; value: 9.98 µM
CN1CCN(CCSc2nnc(-c3ccc4ccccc4c3)c3ccccc23)CC1 ; value: 100 µM
Cc1cn([C@@H]2C=C(C#N)[C@H](CO)O2)c(=O)[nH]c1=O ; value: >100 µM
CN(C)CCNc1cc(-c2ccco2)nc2ccccc12 ; value: 1.2 µM
Cc1ccc2nc(Cl)c(/C=C/C(=O)c3sccc3C)cc2c1 ; method: MTS ; value: 25.3 µM
Cn1ncc2cc(NC(=O)NCCc3ccc4c(n3)NCCC4)ccc21 ; value: 0.7 µM
Cc1ccc(N2C(=O)CCC2(CN)c2ccccc2)cc1 ; method: absorbance ; value: 54.1 µM
O=C(NCCCc1ccccc1)NCCc1ccc2c(n1)NCCC2 ; value: 50 µM
CN(C)CCSc1nc(-c2ccccc2)c2ccccc2n1 ; value: 100 µM
CCN(CCN(C)C)c1cc(-c2ccccc2)nc2ccccc12 ; value: 100 µM
Cc1cnc(SCCN2CCN(C)CC2)nc1-c1cc2ccccc2s1 ; value: 10 µM
O=C(NCCc1ccc2c(n1)NCCC2)Nc1cc(F)ccc1F ; value: 50 µM
CN1CCN(CCSc2nccc(-c3cccs3)n2)CC1 ; value: 100 µM
CN(CCc1ccc2c(n1)NCCC2)C(=O)Nc1ccc(Cl)c(Cl)c1 ; value: 7.2 µM
CN(C)CCSc1nccc(-c2cccn2C)n1 ; value: 100 µM
N#CC1=C[C@@H](n2cnc3c(=O)[nH]c(N)nc32)O[C@H]1CO ; value: >100 µM
Nc1cc2c(cc1F)CN(c1nn3c(C4CC4)nnc3c3ccccc13)CC2 ; value: 1.73 µM
CN1CCN(CCSc2nc(-c3ccccc3)c3ccccc3n2)CC1 ; value: 100 µM
NCC1(c2ccccc2)CCC(=O)N1Cc1ccccc1 ; method: absorbance ; value: >100 µM
c1ccc2c(c1)CCN(c1nn3c(C4CC4)nnc3c3ccccc13)C2 ; value: 64.7 µM
COc1ccc2nc(Cl)c(/C=C/C(=O)c3ccc(Br)s3)cc2c1 ; method: MTS ; value: 17.3 µM
CN(C)CCSc1cccc(-c2cc(-c3cccs3)nc(SCCN(C)C)n2)c1 ; value: 10 µM
CC(C)c1nnc2c3ccccc3c(N3CCc4ccc(NS(C)(=O)=O)cc4C3)nn12 ; value: 2.64 µM
Cc1ccc2nc(Cl)c(/C=C/C(=O)c3ccc(C)s3)cc2c1 ; method: MTS ; value: 55.4 µM
N#CC1=C[C@@H](n2cnc3c(N)ncnc32)O[C@H]1CO ; value: >100 µM
CN(C)CCSc1nccc(-c2ccc(-c3ccnc(SCCN(C)C)n3)s2)n1 ; value: 10 µM
CN1CCN(Cc2ccc(-c3cccc(-c4ccc(CN5CCN(C)CC5)cc4)n3)cc2)CC1 ; value: 100 µM
CN1CCN(CCSc2nnc(-c3cc4ccccc4s3)c3ccccc23)CC1 ; value: 100 µM
O=C(NCCc1ccc2c(n1)NCCC2)Nc1cccs1 ; value: 50 µM
CN(C)CCNc1c2c(nc3ccccc13)-c1ccccc1C2 ; value: 1 µM
CN(C)Cc1ccc(-c2cccc(-c3ccc(CN(C)C)cc3)n2)cc1 ; value: 100 µM
N#C[C@@H]1[C@H](O)[C@@H](n2cnc3c(=O)[nH]c(N)nc32)O[C@H]1CO ; value: >100 µM
CN1CCN(CCSc2nccc(-c3cccs3)n2)CC1 ; value: 100 µM
COc1ccc2nc(Cl)c(/C=C/C(=O)c3ccc4ccccc4c3)cc2c1 ; method: MTS ; value: >100 µM
CN(CCCN)CCCNc1nc(-c2cccs2)cc(-c2cccs2)n1 ; value: 100 µM
c1cnc2c(c1)CN(c1nn3c(C4CC4)nnc3c3ccccc13)CC2 ; value: 11.9 µM
NCCNc1nc(-c2cccs2)cc(-c2cccs2)n1 ; value: 10 µM
FC(F)(F)Cc1nnc2c3ccccc3c(N3CCc4ccccc4C3)nn12 ; value: >100 µM
OCCN(CCO)c1nc(-c2cccs2)cc(-c2cccs2)n1 ; value: 100 µM
Nc1ncnc2c1ncn2[C@@H]1C=C(CO)[C@@H](O)[C@H]1O ; value: 9.98 µM
CN1CCN(CCSCc2ccc(-c3cccc(-c4ccc(CSCCN5CCN(C)CC5)cc4)n3)cc2)CC1 ; value: 10 µM
CN1CCN(c2nc(-c3ccccc3)nc3ccccc23)CC1 ; value: 100 µM

For reference, 5 entries again:

compound	method	value
OCCN(CCO)c1nc(-c2cccs2)cc(-c2cccs2)n1		100 µM
NCCNc1nc(-c2cccs2)cc(-c2cccs2)n1		10 µM
Cc1cc(NC(=O)NCCc2ccc3c(n2)NCCC3)on1		50 µM
COc1ccc2nc(Cl)c(/C=C/C(=O)c3ccc(Br)s3)cc2c1	MTS	17.3 µM
NCC1(c2ccccc2)CCC(=O)N1Cc1ccccc1	absorbance	>100 µM